A mixed list of measured activities; the numbers were collected in NIAID ChemDB.

Common to all: whole-cell or culture tests; organism: Candida albicans; read-out: MIC

Neighbouring rows are from separate reports.

Cc1c(N2CCC(NC3CC3)C2)c(F)cn2c(=O)c(C(=O)O)cc(C3CC3)c12 ; strain or isolate: CCH442 ; result: 25 µg/mL
C[C@@H](c1nc(-c2ccc(C#N)cc2)cs1)[C@](O)(Cn1cnnc1)c1ccc(F)cc1F ; strain or isolate: A14060 ; result: 0.06 µg/mL
CC(CCc1ccccc1)C1=CCN(C)CC1 ; strain or isolate: C316 ; result: 31 µg/mL
Cc1c(N2C[C@@H](N)C[C@@H]2C)c(F)cn2c(=O)c(C(=O)O)cc(C3CC3)c12 ; strain or isolate: CCH442 ; result: >100 µg/mL
C=CCc1ccc(O)c(-c2ccc(O)c(CC=C)c2)c1 ; strain or isolate: YL 353 ; method: broth dilution ; result: 64 µg/mL
Nc1[nH]c(=O)ncc1F ; strain or isolate: ATCC 90029 ; result: 32 µg/mL
CN1CC[C@H]2[C@@H](CC[C@@H]3c4cc(Cl)ccc4CC[C@H]23)C1 ; strain or isolate: C316 ; result: 100 µg/mL
Cc1c(N2CC(CN(C)C)CC3CCCC32)c(F)cn2c(=O)c(C(=O)O)cc(C3CC3)c12.Cl ; strain or isolate: CCH442 ; result: 100 µg/mL
Cc1c(N2CC[C@@H]([C@@H](C)N)C2)c(F)cn2c(=O)c(C(=O)O)cc(C3CC3)c12.Cl ; strain or isolate: CCH442 ; result: >100 µg/mL
CN1CCC2=C(CCCC2CCc2cccc(Cl)c2)C1 ; strain or isolate: 2381E ; result: 16 µg/mL
CCC[C@H](N)[C@@H]1CCN(c2c(F)cn3c(=O)c(C(=O)O)cc(C4CC4)c3c2C)C1.Cl ; strain or isolate: CCH442 ; result: 6.2 µg/mL
C[C@H](CCC(=O)NCCNCCNC(=O)CC[C@@H](C)[C@H]1CCC2C3C(C[C@H](C)[C@@]21O)[C@@]1(C)CC[C@@H](O)CC1C[C@H]3O)[C@H]1CCC2C3C(C[C@H](C)[C@@]21O)[C@@]1(C)CC[C@@H](O)CC1C[C@H]3O ; strain or isolate: Isolate 5 ; result: 0.011 µM
CN1CCC2=C(CCCC2CCc2ccc(Cl)cc2)C1 ; strain or isolate: C316 ; result: 8 µg/mL
C=CC[C@@H]1/C=C(/C)C[C@H](C)C[C@H](OC)[C@H]2O[C@@](O)(C(=O)C(=O)N3CCCC[C@H]3C(=O)O[C@H](/C(C)=C/[C@@H]3CC[C@@H](O)[C@H](OC)C3)[C@H](C)[C@@H](O)CC1=O)[C@H](C)C[C@@H]2OC ; strain or isolate: DAY364 (genotype CNB1/CNB1) ; result: >3.12 µg/mL
CC1=C(N2CCC3CCNC32)C(F)=CN2C(=O)C(C(=O)O)=CC(C3CC3)C12 ; strain or isolate: CCH442 ; result: >100 µg/mL
COc1cccc(CCC2CCCc3cnccc32)c1 ; strain or isolate: C316 ; result: 31 µg/mL
Cc1c(N2CCC(N(C)C)C2)c(F)cn2c(=O)c(C(=O)O)cc(C3CC3)c12 ; strain or isolate: CCH442 ; result: >100 µg/mL
CN1CCC2=C(CCCC2(CCc2ccc(Br)cc2)CCc2ccc(Br)cc2)C1 ; strain or isolate: C316 ; result: 125 µg/mL
Cc1c(N2CC[C@H]([C@@H](C)N)C2)c(F)cn2c(=O)c(C(=O)O)cc(C3CC3)c12 ; strain or isolate: CCH442 ; result: >100 µg/mL
Cc1c(N2CC[C@H](NC(=O)[C@H](C)N)C2)c(F)cn2c(=O)c(C(=O)O)cc(C3CC3)c12.Cl ; strain or isolate: CCH442 ; result: >100 µg/mL
CN1CCC2=C(CCCC2CCc2ccccc2Cl)C1 ; strain or isolate: 2381E ; result: 16 µg/mL
Cc1c(N2CC3(CC(N)C3)C2)c(F)cn2c(=O)c(C(=O)O)cc(C3CC3)c12 ; strain or isolate: CCH442 ; result: >100 µg/mL
Clc1ccc(CCC2CCCc3cnccc32)c(Cl)c1 ; strain or isolate: C316 ; result: >125 µg/mL
Cc1c(N2CCC(N)CC2)c(F)cn2c(=O)c(C(=O)O)cc(C3CC3)c12 ; strain or isolate: CCH442 ; result: >100 µg/mL
Cc1c(N2CC[C@@H]([C@@H]3CCCN3)C2)c(F)cn2c(=O)c(C(=O)O)cc(C3CC3)c12 ; strain or isolate: CCH442 ; result: >100 µg/mL

Repeating the first 3 entries:

structure,strain or isolate,method,result
Cc1c(N2CCC(NC3CC3)C2)c(F)cn2c(=O)c(C(=O)O)cc(C3CC3)c12,CCH442,-,25 µg/mL
C[C@@H](c1nc(-c2ccc(C#N)cc2)cs1)[C@](O)(Cn1cnnc1)c1ccc(F)cc1F,A14060,-,0.06 µg/mL
CC(CCc1ccccc1)C1=CCN(C)CC1,C316,-,31 µg/mL

Blank or dashed fields: not listed here.